These are literature values, as cited in US20080255099A1 (priority 2004, published 2008).

This series has as its system human tumors. The conditions noted are these: human tumors transplanted in nude mice; Welsh et al. 2004; cited from earlier work.

In the case of `N[C@@H](Cc1ccc([N+]([O-])(CCCl)CCCl)cc1)C(=O)O`, the “antitumoral activity (in words)” value is listed as “marked antitumoral activity”.
